Source: article PMC11579292

Target: human angiotensin converting enzyme-2 peptidase domain (human) (UniProt Q9BYF1)
Experiment: BLI

Substance: WT (ancestral strain) receptor binding domain (RBD) (from UniProt P0DTC2 327-528) (domain or fragment; other documents disagree on this pair)
- pKd: 7.50

pKd: −log10 of the molar value.
